These results are taken from PubChem BioAssay AID1476 (National Center for Advancing Translational Sciences (NCATS), 2009).

Sequences of proteins named here, by UniProt entry; tags and fusion partners are left off. Residues count along the entry.
UniProt P25779, 123-467 limits assumed: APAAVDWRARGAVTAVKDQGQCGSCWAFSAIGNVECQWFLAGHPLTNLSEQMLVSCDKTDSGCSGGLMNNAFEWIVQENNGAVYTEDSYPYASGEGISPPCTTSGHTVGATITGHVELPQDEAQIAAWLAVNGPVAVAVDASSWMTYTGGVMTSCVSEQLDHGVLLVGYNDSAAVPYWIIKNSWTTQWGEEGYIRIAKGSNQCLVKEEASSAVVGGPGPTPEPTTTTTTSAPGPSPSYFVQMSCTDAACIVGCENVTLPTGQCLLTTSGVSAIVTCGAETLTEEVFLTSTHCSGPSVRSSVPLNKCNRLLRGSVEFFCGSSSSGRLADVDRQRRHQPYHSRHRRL

The entries are a selection whose mix differs from that of the whole data set. Records with an inconclusive call do not appear. Calls of active or inactive are those of the source. The call rests on the fitted dose curve; in most records, active means well fitted inhibition curve with a large enough effect; inconclusive means small, poorly fitted or top-dose-only effect, or effect the other way; inactive means flat fitted curve, though single readings scatter.

The target of the assay is Cruzipain (Trypanosoma cruzi) (UniProt P25779). In words: qHTS Assay for Promiscuous and Specific Inhibitors of Cruzain (without detergent).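 Further: plate controls were enzyme without inhibitor for no effect and buffer without enzyme for full effect; nearly all actives have a fitted effect of over 40% in size.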 The following applies: purified cruzain, Z-FR-AMC fluorescence, no detergent. (In general: qHTS replaces the single test concentration by a dilution series.)
For the compound `C/C1=C2N=C(/C=C3N=C(/C(C)=C4\[N-][C@@](C)([C@H]5N=C1[C@@](C)(CCC(=O)NC[C@H](C)OP(=O)([O-])O[C@@H]1[C@H](O)[C@H](n6cnc7cc(C)c(C)cc76)O[C@@H]1CO)[C@@H]5CC(N)=O)[C@](C)(CC(N)=O)[C@H]4CCC(N)=O)[C@@](C)(CC(N)=O)[C@@H]\3CCC(N)=O)C(C)(C)[C@@H]/2CCC(N)=O.[C-]#N.[Co+3]`, the max response, negative = inhibition is inactive: -5.07%.
With `CCOC(=O)c1ccc(NP(C)(=O)Oc2ccc(Cl)cc2)cc1` (centres undefined) the figure was inactive: 9.26%; with `CC(C)(C)c1ccc(OP(C)(=O)O)cc1`, inactive: -13.3%; with `CP(=O)(Nc1ccc(Cl)cc1)Oc1ccc(F)cc1` (centres undefined), inactive: 2.13%.
With `CN(C)C(=O)OCCc1n(C)cc[n+]1C` the figure was inactive: -10.6%; with `O=C(CO)Nc1ccc([As](=O)(O)O)cc1`, inactive: 2.97%; with `CC(=O)C1=CCCC2CCC1N2` (centres undefined), inactive: -4.96%.
With `COc1ccc(OP(C)(=O)Nc2ccc(Br)cc2)cc1` (centres undefined) the figure was inactive: 4.39%; with `CCN(CC)CC(O)COC(=O)C(O)(c1ccccc1)C1CCCCC1` (centres undefined), inactive: 3.54%; with `N#[O+].[C-]#N.[C-]#N.[C-]#N.[C-]#N.[C-]#N.[Fe+2].[Na+].[Na+]`, inactive: 1.88%.
Take `OCCSCCO`: the max response, negative = inhibition is inactive: 6.32%.
On to `COc1ccccc1OP(C)(=O)Nc1c(C)n(C)n(-c2ccccc2)c1=O` (centres undefined), for which the max response, negative = inhibition was inactive: -2.4%.
With `O=[N+]([O-])c1cccc2n[nH]nc12`, the max response, negative = inhibition was inactive: -6.89%.
To `CC(=O)N1C2C3N(C(C)=O)C1C1N(C(C)=O)C(C(N1C(C)=O)N3C(C)=O)N2C(C)=O` belongs inactive: 0.619%; to `CCc1nc2c(n1)c1c(non1O)c1c2no[n+]1[O-]`, inactive: -4.42%; to `CP(=O)(Oc1ccccc1)N1CCOC1=O` (centres undefined), inactive: -7%.
Take `CC(C)CC(=O)NC(Sc1ccc(Cl)cc1)C(Cl)(Cl)Cl` (centres undefined): the max response, negative = inhibition was inactive: 1.64%.
On to `Cc1c(NP(C)(=O)Oc2ccc(C(C)C)cc2)c(=O)n(-c2ccccc2)n1C` (centres undefined), for which the max response, negative = inhibition is inactive: 6.64%.
For `O=C(NC(Sc1ccncn1)C(Cl)(Cl)Cl)c1ccccc1` (centres undefined), the max response, negative = inhibition was inactive: 3%.
Regarding `Oc1ccccc1CNc1ccccn1`, the max response, negative = inhibition is inactive: 9.27%.
Take `COc1ccccc1OP(C)(=O)Nc1ccc(C)cc1C` (centres undefined): the max response, negative = inhibition was inactive: 7.14%.
With `CP(=O)(Nc1ccccn1)Oc1ccccc1` (centres undefined), the max response, negative = inhibition was inactive: -10.3%.
To `CCc1ccc(OP(C)(=O)O)cc1` belongs inactive: 2.53%; to `NCC[C@@H](N)CSP(=O)(O)O`, inactive: 6.2%.
With `COc1ccc(OP(C)(=O)Nc2ccccn2)cc1` (centres undefined) the figure was inactive: 9.98%; with `O=[N+]([O-])c1ccc(C[As](=O)(O)O)cc1`, inactive: 6.5%; with `CN(C)CCOC(=O)C(O)(c1ccccc1)C1CCCC1` (centres undefined), inactive: 1.79%.
`CN1CCCC(OC(=O)C(c2ccccc2)c2ccccc2)C1` (centres undefined): the max response, negative = inhibition is inactive: -2.85%.
Regarding `Cc1nc2ccc3ccccc3c2o1.O=[N+]([O-])c1cc([N+](=O)[O-])c(O)c([N+](=O)[O-])c1`, the max response, negative = inhibition was inactive: -10.9%.
For `[N-]=[N+]=NCC(O)CN=[N+]=[N-]` (centres undefined), the max response, negative = inhibition is inactive: -8.18%.
As to `CCN(N=Nc1nonc1N)c1nonc1N`, the max response, negative = inhibition is inactive: -1.66%.
With `C(Cc1nn[nH]n1)c1nn[nH]n1`, the max response, negative = inhibition is inactive: 9.91%.
With `CN(C(=O)Cc1ccc(Cl)c(Cl)c1)[C@H]1CCCC[C@@H]1N1CCCC1` the figure was inactive: 2.99% [middle of 6 runs]; with `COc1ccccc1OP(C)(=O)Nc1ccc(C)c(C)c1` (centres undefined), inactive: 3.15%.
Regarding `CCOP(=O)(Nc1ccccc1)OCC`, the max response, negative = inhibition is inactive: 0.588%.
To `Cc1cc(SC(NC(=O)c2ccc(F)cc2)C(Cl)(Cl)Cl)ncn1` (centres undefined) belongs inactive: -1.31%; to `COc1ccc(OP(C)(=O)Nc2ccccc2Br)cc1` (centres undefined), inactive: -1.69%.
To `CC(=O)NC(SC(=S)N(CC(C)C)CC(C)C)C(Cl)(Cl)Cl` (centres undefined) belongs inactive: -3.27%; to `COC(=O)c1cc2c(s1)N=C(c1ccccc1)N(C)P2(=O)N1CCOCC1` (centres undefined), inactive: -7.97%; to `CCN(CC)CCCOC(=O)C(O)(c1ccccc1)C1CCCCC1` (centres undefined), inactive: -5.14%.
To `CCC(=O)N1C2C3N(C(=O)CC)C1C1N(C(=O)CC)C(C(N1C(=O)CC)N3C(=O)CC)N2C(=O)CC` belongs inactive: 3.42%; to `CN(C(=O)Cc1ccc(Cl)c(Cl)c1)[C@@H]1CCCC[C@@H]1N1CCCC1`, inactive: -11.2%.
`CP(=O)(Nc1ccccc1)Oc1ccc(F)cc1` (centres undefined): the max response, negative = inhibition is inactive: -6.04%.
To `CCOC(=O)NC(Sc1ccccc1)C(Cl)(Cl)Cl` (centres undefined) belongs inactive: 1.27%; to `Cc1cccc([N+](=O)[O-])c1[N+](=O)[O-]`, inactive: -3.21%; to `CCC(C)(OO)OOC(C)(CC)OO` (centres undefined), inactive: 5.58%.
For the compound `CCOC(=O)c1ccc(NP(C)(=O)Oc2ccc(F)cc2)cc1` (centres undefined), the max response, negative = inhibition is inactive: 1.65%.
Consider `O=C(OCCN1CCN(CCOCc2ccccc2)CC1)C(O)(c1ccccc1)c1ccccc1`, for which the max response, negative = inhibition was inactive: 12.7%.
To `O=P1(Nc2nc3ccc(Cl)cc3s2)COc2ccccc2O1` (centres undefined) belongs inactive: -0.054%; to `CP(=O)(Nc1ccccc1F)Oc1ccccc1` (centres undefined), inactive: -6.94%; to `CC(C)c1ccc(OP(C)(=O)Nc2ccc(SC(F)(F)F)cc2)cc1` (centres undefined), inactive: 7.83%.
Turning to `CP(=O)(Nc1ccc2c(c1)OCCO2)Oc1ccccc1` (centres undefined), the max response, negative = inhibition was inactive: 1.03%.
Turning to `CN1CCC[C@H](OC(=O)C(c2ccccc2)c2ccccc2)C1`, the max response, negative = inhibition was inactive: -0.458%.
Consider `C[C@@H](O)COc1ccc([As](=O)(O)O)cc1N`, for which the max response, negative = inhibition is inactive: 13.8%.
With `[NH4+].[O-][Cl+3]([O-])([O-])[O-]` the figure was inactive: -1.28%; with `CCN(CCCl)Cc1ccccc1C`, inactive: -1.59%; with `Cc1ccccc1NP(C)(=O)Nc1ccccc1C`, inactive: 5.04%.
As to `NNC(NN)NN.n1nc(-c2nn[nH]n2)n[nH]1`, the max response, negative = inhibition was inactive: -11.4%.
With `CC(C)C(=O)NC(Sc1ccccc1)C(Cl)(Cl)Cl` (centres undefined) the figure was inactive: 7.06%; with `O=P(Nc1nccs1)(c1ccccc1)c1ccccc1`, inactive: -9.71%; with `CCOP(C)(=S)SCC(=O)NC(C)(CC)C(=O)O` (centres undefined), inactive: 2.49%.
For `CCOP(=O)(CC)OCC`, the max response, negative = inhibition was inactive: -4.64%.
For the compound `c1nnnn1CCn1cnnn1`, the max response, negative = inhibition is inactive: 1.61%.
With `CC(=O)NC(SC(=S)N(C)C)C(Cl)(Cl)Cl` (centres undefined) the figure was inactive: -7.96%.
